Measured values from several laboratories, pooled; numbers as filed in NIAID ChemDB.

Common to all: tests in culture; species: HIV-1; method: p24; read-out: inhibition

Blank or dashed fields: not listed here.

structure | strain or isolate | cells | tested at | conditions | result
Oc1ccc(/C=C/c2cc(O)cc(O)c2)cc1 | EJC-X2 | PBMC | 10 µM | clinical isolate | 35%
C[C@@H](C=O)NC(=O)[C@@H]1CCCN1C(=O)CN | IIIB | H9 | 250 µg/mL |  | 0%
CCC[C@@]1(CCc2ccccc2)CC(O)=C([C@H](CC)c2cccc(NS(=O)(=O)c3ccc(C(F)(F)F)cn3)c2)C(=O)O1 | Isolate N. Amer 4 | PBMC | 0.15 µM |  | 90%
NC(N)=NCCC[C@H](NC(=O)[C@@H](N)Cc1ccc(O)cc1)C(=O)NCC(=O)N1CCC[C@H]1C(=O)NCC=O | IIIB | H9 | 25 µg/mL |  | 17%
COc1ccc(CN[C@@H](C(=O)N[C@H]2c3ccccc3C[C@H]2O)[C@H](O)[C@H](Cc2ccccc2)NC(=O)[C@@H](NC(=O)OCc2ccccc2)C(C)(C)C)cc1 | IIIB | Primary T4 cells + T4 | 0.074 µM |  | 90%
c1cc(CN2CCCNCCNCCCNCC2)ccc1CN1CCCNCCNCCCNCC1 | 92US714 CLADE B R5 | PBMC | 0.5 µM |  | 0%
COC(=O)[C@@H]1C2CCC(C[C@@H]1OC(=O)c1ccccc1)N2C | IIIB | U1 | 50 µg/mL |  | <0%
CC(C)[C@H](NC(=O)c1ccc2ccccc2n1)C(=O)N[C@@H](Cc1ccccc1)[C@H](O)CN1CC[C@@H](OCc2ccncc2)C[C@H]1C(=O)NC(C)(C)C | Nevirapine-resistant | C8166 | 0.029 µM |  | 90%
NCC(=O)N1CCC[C@H]1C=O | IIIB | H9 | 250 µg/mL |  | 0%
C/C(=C(/CCO)SS/C(CCO)=C(\C)N(C=O)Cc1cnc(C)nc1N)N(C=O)Cc1cnc(C)nc1N | RF | U-937/HIV-1(RF) + U-937 | 125 µM |  | 0%
NC(N)=NCCC[C@@H](C=O)NC(=O)CNC(=O)[C@@H]1CCCN1 | IIIB | H9 | 250 µg/mL |  | 0%
O=S(=O)(O)c1cc(N=C=S)ccc1CCc1ccc(N=C=S)cc1S(=O)(=O)O | GB8 | JM | 100 µg/mL |  | 100%
O=C1N(Cc2ccc(CO)cc2)[C@H](Cc2ccccc2)[C@H](O)[C@@H](O)[C@@H](Cc2ccccc2)N1Cc1ccc(CO)cc1 | Clinical isolate P | PBMC | 0.18 µM |  | 90%
NCC(=O)N1CCC[C@H]1C(=O)NCC(=O)N[C@H](C=O)CCCN=C(N)N | IIIB | H9 | 250 µg/mL |  | 11.97%
CC(=O)N1CCC(C(=O)N(CCCN2CCC(Cc3ccc(C(N)=O)cc3)CC2)c2ccc(C)c(Cl)c2)CC1 | HHA R5 clinical isolate | PBMC | 0.004 µM |  | 90%
Cc1cn([C@H]2C[C@H](N=[N+]=[N-])[C@@H](CO)O2)c(=O)[nH]c1=O |  | U1 | 0.1 µM |  | 45.5%

Repeating the first 2 entries:

structure | strain or isolate | cells | tested at | conditions | result
Oc1ccc(/C=C/c2cc(O)cc(O)c2)cc1 | EJC-X2 | PBMC | 10 µM | clinical isolate | 35%
C[C@@H](C=O)NC(=O)[C@@H]1CCCN1C(=O)CN | IIIB | H9 | 250 µg/mL |  | 0%

Percent inhibition refers to the dose given; in toxicity tests it is the harm to the cells. Neighbouring rows are from separate reports.